Reference: article PMC12519464, “Dual-Site Inhibition of SARS-CoV‑2 RNA-Dependent RNA Polymerase by Small Molecules Able to Block Viral Replication Identified through a Computer-Aided Drug Discovery Approach” (ACS Infectious Diseases, 2025)

Molecular target: SARS-CoV-2 nsp12/7/8 (RTC) complex (Severe acute respiratory syndrome coronavirus 2, UniProt P0DTD1)
Type: biochemical
Settings: read-out: IC50: compound concentration required to inhibit by 50% the SARS-CoV-2 RTC enzymatic activity

Q: “(2S,4aS,6aR,6aS,6bR,8aR,10S,12aS,14bR)-10-hydroxy-2,4a,6a,6b,9,9,12a,14b-octamethyl-N-(4-methylphenyl)-13-oxo-1,3,4,5,6,6a,7,8,8a,10,11,12-dodecahydropicene-2-carboxamide” was tested. Which IC50 did it give?
A: > 100 µM

Q: How did the IC50 turn out when Bromocryptine [reference compound] was run?
A: > 100 µM

Q: Echinocystic acid was tested. Which IC50 did it give?
A: 88.5 ± 16.2 µM
